A mixed list of measured activities; the numbers were collected in NIAID ChemDB.

Common to all: growth or infection tests; organism: Mycobacterium tuberculosis

Percent inhibition refers to the dose given; in toxicity tests it is the harm to the cells. Lines come from different laboratories, so protocols vary. ECn: concentration that inhibits the pathogen or its effect by n%. An empty or dashed field is not shown. MIC bound comes from a single tested concentration. A number after MIC or MFC names an inhibition level or a share of isolates.

smiles | strain or isolate | changes | method | endpoint | dose | value
Cc1cc(O)c2c(c1)C(=O)C(c1c(C)cc3c(c1O)C(=O)C=CC3=O)=CC2=O | H37Rv | - | - | MIC | - | 100 µg/mL
O=C(Cc1csc2nc(-c3ccccc3)cn12)N/N=C/c1cccs1 | H37Rv | - | - | MIC | - | >12.5 µg/mL
C=CCC1(C(C)Cc2ccc(OC)c(OC)c2)CC(OC)C=CC1=O | H37Rv | - | BACTEC | inhibition | 12.5 µg/mL | 42%
CC(=O)c1ccc(N2CCN(C(=O)c3ccc(Cl)c(Cl)c3)CC2)cc1 | Wild type without biotin | - | turbidity | MIC90 | - | >50 µM
C[C@H](N)C(=O)N[C@@H](CB(O)O)Cc1ccccc1 | H37Rv | - | - | MIC | - | ≤500 µg/mL
Clc1ccccc1-n1cc(CSC2c3ccccc3-c3ccccc32)nn1 | H37Rv | - | broth dilution | MIC99 | - | >256 µM
CCOC(=O)C1=C(C)N(NC(=O)c2ccccc2)C2(O)CCCC12C(=O)OCC | H37Rv | - | resazurin | MIC bound | - | >6.25 µg/mL
C[C@H](c1ccccc1)N1C[C@@]2(ON=C(c3ccc(Cl)cc3)[C@H]2c2ccccc2Cl)C2(ON=C(c3ccc(Cl)cc3)O2)[C@]2(C1)ON=C(c1ccc(Cl)cc1)[C@H]2c1ccccc1Cl | - | - | - | MIC | - | 3.44 µM
COc1ccc(/C=C/C(=O)c2ccncc2)cc1 | H37Rv | - | resazurin | EC90 | - | ≥50 µg/mL
CC[C@H]1OC(=O)[C@H](C)[C@@H](O[C@H]2C[C@@](C)(OC)[C@@H](OC(C)=O)[C@H](C)O2)[C@H](C)[C@@H](O[C@@H]2O[C@H](C)C[C@H](N(C)C)[C@H]2O)C(C)(O)C[C@@H](C)/C(=N\OCCCC2CCCCC2)[C@H](C)[C@@H](O)[C@]1(C)O | 3 | - | - | MIC | - | 3.13 µg/mL
Cc1cc(Nc2ccc(N(C)C)cc2)c2cc(N(C)C)ccc2n1 | H37Rv | - | resazurin | MIC | - | 6.25 µg/mL
O=C(Cc1csc2nc(-c3ccccc3)cn12)N/N=C/C=C/c1ccc([N+](=O)[O-])o1 | H37Rv | - | - | MIC | - | >12.5 µg/mL
O=C(/C=C/c1ccc(Cl)cc1)c1ccncc1 | H37Rv | - | resazurin | EC90 | - | ≥6.25 µg/mL
O=C(/C=C/c1ccccc1)c1ccc(Br)cc1O | H37Rv | - | - | MIC | - | >12.5 µg/mL
C[C@H]1COc2c(N3CCN(C)CC3)c(F)cc3c(=O)c(C(=O)O)cn1c23 | 23 strains (rifampicin-resistant) | - | - | MIC50 | - | 3.13 µg/mL
CC(C)N=c1cc2n(-c3ccc(Cl)cc3)c3ccccc3nc-2cc1Nc1ccc(Cl)cc1 | H37Rv | KatG W149R mutation | broth dilution | MIC99 | - | 0.125 µg/mL
COc1ccc(C(OCC2OC(n3cnc4c(=O)n(Cc5ccccc5[N+](=O)[O-])nnc43)C(O)C2O)(c2ccccc2)c2ccc(OC)cc2)cc1 | H37Rv | - | resazurin | inhibition | 6.25 µg/mL | 5%
CC[C@@H](CO)NCCN[C@@H](CC)CO | MDR-TB | - | - | MIC | - | 61.18 µM
Nc1nc2nc3c(nc2c(=O)[nH]1)CN(c1ccc(C(=O)O)cc1)C3=O | H37Rv | - | BACTEC | inhibition | 12.8 µg/mL | 11%
CC(=O)c1ccc(N2CCN(C(=O)c3cccnc3)CC2)cc1 | BioA overexpression strain | - | turbidity | MIC50 | - | >50 µM
CC1CN(c2c(F)cc3c(=O)c(C(=O)O)cn(C4CC4)c3c2F)CCN1 | CSU28 | - | - | MIC | - | 0.25 µg/mL
CN(Cc1cnc2nc(N)nc(N)c2n1)c1ccc(C(=O)N[C@@H](CCC(=O)O)C(=O)O)c(Cl)c1Cl | H37Rv | - | BACTEC | MIC bound | - | >12.5 µg/mL
O=C(Cc1csc2nc(-c3ccccc3)cn12)N/N=C/c1ccc(C(=O)O)cc1 | H37Rv | - | - | MIC | - | >12.5 µg/mL
O=C1OC[C@H]2[C@H](c3ccc(O)c(O)c3)c3cc(O)c(O)cc3C[C@H]12 | H37Rv | - | BACTEC | MIC | - | ≥128 µg/mL
Brc1ccc(-n2cc(CSC3c4ccccc4-c4ccccc43)nn2)cc1 | Specimen 192 | - | broth dilution | MIC99 | - | 57.55 µM
CCc1cccc(CC)c1Nc1nc2c(s1)C(=O)c1ccccc1C2=O | H37Rv | - | BACTEC | MIC bound | - | ≤12.5 µg/mL
Nc1ncccc1/C=C/C(=O)c1cc2ccccc2cc1O | H37Rv | - | - | MIC | - | >12.5 µg/mL
CC[C@@H](CO)NCCN[C@@H](CC)CO | H37Rv | - | broth dilution | MIC99 | - | 1 µg/mL
[N-]=[N+]=CC(=O)NC(Cc1ccccc1)C(=O)NN | H37Rv | - | BACTEC | inhibition | 12.5 µg/mL | -12%
COc1ccc(C(=O)Nc2cc(C)on2)c(O)c1 | My 331/88 | - | - | MIC | - | 125 µM
Cc1cccc(C(N)=Nc2nc(-c3ccccn3)cc3ccccc23)c1 | - | - | - | MIC | - | 1 µg/mL
COc1ccc(/C=C/C(=O)c2c(O)cc(OC)cc2OC)cc1 | H37Rv | - | - | MIC | - | >12.5 µg/mL
COC(=O)/C=C(C)/C=C/C1OC(C)OCC1O | H37Rv | - | BACTEC | MIC | - | ≥12.5 µg/mL
Fc1ccc(-n2cc(CSC3c4ccccc4-c4ccccc43)nn2)cc1Cl | Specimen 192 | - | broth dilution | MIC99 | - | 246 µM
CC(C)N(O)C(=O)C(=O)O | ATCC35801 | - | - | MIC | - | 18 µg/mL
O=C(O)c1cn(C2CC2)c2c(F)c(N3CCSCC3)c(F)cc2c1=O | Strain 24 | - | - | MIC | - | 1 µg/mL
C[C@H](N)C(=O)N[C@@H](CB1OC2CC3CC(C3(C)C)[C@@]2(C)O1)c1ccccc1 | H37Rv | - | agar | MIC | - | ≤500 µg/mL
Cn1nnnc1-c1ccc(N2CCN(C(=O)c3cccc(Cl)c3)CC2)cc1 | BioA underexpression strain | - | turbidity | MIC50 | - | >50 µM
C[C@H](c1ccccc1)N1C/C(=C\c2ccccc2Cl)C(=O)/C(=C/c2ccccc2Cl)C1 | H37Rv | - | - | MIC | - | 13.95 µM
Cc1ccc(NC(=O)COc2ccc(Cl)cc2Cl)cc1Cl | H37Rv | - | BACTEC | inhibition | 12.5 µg/mL | 0%
O=c1cc(-c2ccccc2)oc2ccc(Br)cc12 | H37Rv | - | - | MIC | - | >12.5 µg/mL
O=C(Nc1cncs1)c1ccccc1O | My 331/88 | - | - | MIC | - | 62.5 µM
CC(C)=CCOc1c2ccoc2cc2oc(=O)ccc12 | H37Rv | - | resazurin | MIC100 | - | 100 µg/mL
C=C1C(=O)O[C@H]2[C@@H](O)[C@H](C)[C@H]3C=CC(=O)[C@]3(C)[C@H](OC(=O)/C(C)=C/C)[C@@H]12 | H37Rv | - | BACTEC | MIC bound | - | >12.5 µg/mL
O=C(Cc1csc2nc(-c3ccccc3)cn12)N/N=C/c1ccc([N+](=O)[O-])o1 | H37Rv | - | - | inhibition | 12.5 µg/mL | 98%
COc1ccc(-c2cc(=O)c3cc(I)ccc3o2)cc1 | H37Rv | - | - | MIC | - | >12.5 µg/mL
C[C@H](c1ccccc1)N1C/C(=C\c2ccccc2Br)[C@@]2(ON=C(c3ccc(Cl)cc3)O2)[C@@]2(C1)ON=C(c1ccc(Cl)cc1)[C@@H]2c1ccccc1Br | H37Rv | - | - | MIC | - | 7.4 µM
O=C(c1ccccc1)c1ccc2c(=O)c(C(=O)c3ccccc3)c(-c3ccccc3)oc2c1 | H37Rv | - | - | MIC | - | >12.5 µg/mL
CCOC(=O)c1c(C)c2c(n1C)CC/C(=C\N1CCN(c3ccccc3)CC1)C2=O | H37Rv | - | resazurin | inhibition | 6.25 µg/mL | 28%
CC(C)c1ccc(C2=NO[C@]3(O2)/C(=C/c2cccc4ccccc24)CN([C@H](C)c2ccccc2)C[C@@]32ON=C(c3ccc(C(C)C)cc3)[C@@H]2c2cccc3ccccc23)cc1 | H37Rv | - | - | MIC | - | 15.59 µM
C[C@@H]1CN(c2c(F)c(N)c3c(=O)c(C(=O)O)cn(C4CC4)c3c2F)C[C@H](C)N1 | 18 isolates | - | - | MIC50 | - | 0.25 µg/mL
O=Nc1c(-c2cccc([N+](=O)[O-])c2)nc2cc(-c3ccccc3)[nH]n12 | H37Rv | - | BACTEC | inhibition | 12.5 µg/mL | 31%
Cc1csc(NC(=O)c2cc(Br)ccc2O)n1 | My 331/88 | - | - | MIC | - | 125 µM
Cc1cc2c(cc1C)[n+]([O-])c(-c1nc3ccccc3s1)c(N)[n+]2[O-] | INH-r | - | - | MIC | - | 12.5 µg/mL
Cc1cc(C)nc(NC(=O)c2ccccc2O)n1 | My 331/88 | - | - | MIC | - | 1000 µM
CN1Cc2cc(N3CCN(C(=O)c4cccc(Cl)c4)CC3)ccc2C1=O | Wild type without biotin | - | turbidity | MIC90 | - | >50 µM
COC(=O)C1CP2(C)(C)N(C)C(=O)N2C1(c1ccccc1)c1ccccc1 | H37Rv | - | BACTEC | inhibition | 12.5 µg/mL | 3%
O=C(/C=C/c1ccc(F)cc1)c1ccncc1 | H37Rv | - | resazurin | EC90 | - | ≥50 µg/mL
CO[C@H]1/C=C/O[C@@]2(C)Oc3c(C)c(O)c4c(O)c(c(/C=N/N5CCN(C)CC5)c(O)c4c3C2=O)NC(=O)/C(C)=C\C=C\[C@H](C)[C@H](O)[C@@H](C)[C@@H](O)[C@@H](C)[C@H](OC(C)=O)[C@@H]1C | 22 strains (rifampicin-susceptible) | - | - | MIC90 | - | 0.39 µg/mL
COc1ccc(-c2oc3ccc(C(=O)O)cc3c(=O)c2O)cc1 | H37Rv | - | - | MIC | - | >12.5 µg/mL
CC1CN(c2c(F)cc3c(=O)c(C(=O)O)cn(C4CC4)c3c2F)CC(C)N1 | CSU21 | - | - | MIC | - | ≤0.125 µg/mL
CC(=O)O[C@H]1C(=O)[C@]2(C)[C@@H](OC(C)=O)C[C@H]3OC[C@@]3(OC(C)=O)[C@H]2[C@H](OC(=O)c2ccccc2)[C@]2(O)C[C@H](OC(=O)[C@H](OC(C)=O)[C@@H](NC(=O)c3ccccc3)c3ccccc3)C(C)=C1C2(C)C | H37Rv | - | BACTEC | MIC | - | 6.25 µg/mL
C[C@@H](B1OC2CC3CC(C3(C)C)[C@@]2(C)O1)[C@@H](Cc1ccccc1)NC(=O)[C@H](Cc1ccccc1)NC(=O)[C@@H](N)CCCCN | H37Rv | - | agar | MIC | - | ≤50 µg/mL
Cc1ccc(/C=C2/CN([C@H](C)c3ccccc3)CC3(ON=C(c4ccccc4)[C@H]3c3ccc(C)cc3)[C@@]23ON=C(c2ccccc2)O3)cc1 | H37Rv | - | - | MIC | - | 9.68 µM
CC1(C)C2CC3OB(C[C@@H](Cc4ccccc4)NC(=O)[C@@H](N)CCCCN)O[C@]3(C)C1C2 | H37Rv | - | agar | MIC | - | ≤5 µg/mL
O=c1cc(-c2ccccc2)oc2cc(Br)ccc12 | H37Rv | - | - | inhibition | 12.5 µg/mL | 53%
O=C(c1cccc(Cl)c1)N1CCN(c2ccc([N+](=O)[O-])cc2)CC1 | Wild type without biotin | - | turbidity | MIC90 | - | 34.1 µM
C[C@H](c1ccccc1)N1CC(=Cc2cccc3ccccc23)[C@]2(ON=C(c3ccc(Cl)cc3)O2)C2(C1)ON=C(c1ccc(Cl)cc1)[C@H]2c1cccc2ccccc12 | MDR-TB | - | - | MIC | - | 0.99 µM
Cc1ccc(C(=O)Nn2cncn2)c(O)c1 | My 331/88 | - | - | MIC | - | 1000 µM
CC1(C)C2CC3OB([C@H](Cc4ccccc4)[C@@H](Cc4ccccc4)NC(=O)[C@@H](N)CCCCN)O[C@]3(C)C1C2 | H37Rv | - | - | MIC | - | ≤50 µg/mL
C[C@@H]1CN(c2c(F)c(N)c3c(=O)c(C(=O)O)cn(C4CC4)c3c2F)C[C@H](C)N1 | CSU25 | - | - | MIC | - | ≤0.125 µg/mL
CCN(CC)CCNC1=C(Cl)C(=O)c2ccccc2C1=O | H37Rv | - | BACTEC | MIC bound | - | >12.5 µg/mL
Brc1ccc(-n2cc(CNC3c4ccccc4-c4ccccc43)nn2)cc1 | Specimen 192 | - | broth dilution | MIC99 | - | 240 µM
C[C@H](c1ccccc1)N1C/C(=C\c2cccc3ccccc23)[C@@]2(ON=C(c3ccc(Cl)cc3)O2)[C@@]2(C1)ON=C(c1ccc(Cl)cc1)[C@@H]2c1cccc2ccccc12 | H37Rv | - | - | MIC | - | 0.99 µM
Cc1cc(NC(=O)c2cc(F)ccc2O)no1 | My 331/88 | - | - | MIC | - | 250 µM
N=Nc1c(OC(=O)Nc2ccccc2)[nH]c2ccccc12 | H37Rv | - | BACTEC | MIC | - | ≥12.5 µg/mL
O=C(Cc1csc2nc(-c3ccccc3)cn12)N/N=C/c1ccccc1O | H37Rv | - | - | EC50 | - | >12.5 µg/mL
NC(=S)N=Nc1c(O)cc(O)c2[nH]c(=O)ccc12 | H37Rv | - | BACTEC | inhibition | 12.5 µg/mL | 8%
Fc1ccc(-n2cc(CNC3c4ccccc4-c4ccccc43)nn2)cc1Cl | H37Rv | - | broth dilution | MIC99 | - | >256 µM

For reference, 5 entries again:

smiles,strain or isolate,changes,method,endpoint,dose,value
COC(=O)C1CP2(C)(C)N(C)C(=O)N2C1(c1ccccc1)c1ccccc1,H37Rv,-,BACTEC,inhibition,12.5 µg/mL,3%
Cc1cc(O)c2c(c1)C(=O)C(c1c(C)cc3c(c1O)C(=O)C=CC3=O)=CC2=O,H37Rv,-,-,MIC,-,100 µg/mL
O=C(/C=C/c1ccccc1)c1ccc(Br)cc1O,H37Rv,-,-,MIC,-,>12.5 µg/mL
O=c1cc(-c2ccccc2)oc2ccc(Br)cc12,H37Rv,-,-,MIC,-,>12.5 µg/mL
COc1ccc(C(=O)Nc2cc(C)on2)c(O)c1,My 331/88,-,-,MIC,-,125 µM